Pooled drug test results. Numbers come from NIAID ChemDB, via PubChem.

Shared fields: enzyme or target tests

ICn: concentration for n% inhibition. Blank or dashed fields: not listed here. Rows are shuffled and stem from different studies. Inhibition is in % at the dose shown (toxicity tests: loss of growth or viability).

SMILES	protein	tested at	agent	strain or isolate	measure	result
Nc1nc(N)c2nc(CN3c4ccccc4Cc4ccccc43)cnc2n1	Dihydrofolate reductase	-	Cryptosporidium parvum	TYPE 1	IC50	1.7 µM
CCOC(=O)N1CCC(Nc2nnc(NC(=O)c3cc4ccccc4s3)s2)CC1	Polymerase	-	Human cytomegalovirus	-	IC50	>25 µM
CSc1ccc(-c2cncc(N3CCN(c4ccc(C(F)(F)F)cc4)CC3)n2)cc1	UL97 kinase	-	Cytomegalovirus	-	IC50	<10 µM
Nc1nc(N)c2c(CNc3cc(Cl)c(-n4cccc4)c(Cl)c3)c(Br)sc2n1	Dihydrofolate reductase	-	Cryptosporidium parvum	TYPE 2	IC50	>10 µM
O=C(O)CCN1C(=O)C(=Cc2ccc(-c3cc4ccccc4o3)o2)SC1=S	NS5 polymerase	-	Bovine viral diarrhea virus	-	IC50	≤1 µM
O=C(Nc1nnc(NCC(c2ccccc2)c2ccccc2)s1)c1ccc([N+](=O)[O-])o1	Polymerase	-	Human cytomegalovirus	-	IC50	>25 µM
COc1ccc(CC2CCc3nc(N)nc(N)c3C2)cc1	Dihydrofolate reductase	-	Cryptosporidium parvum	TYPE 1	IC50	1.1 µM
NC(=O)c1ccc(-c2cncc(N3CCN(c4ccccn4)CC3)n2)cc1	UL97 kinase	-	Cytomegalovirus	-	IC50	<1 µM
CCCC(C)NC(=O)c1ccc(N(C)Cc2ccc3nc(N)nc(N)c3n2)cc1	Dihydrofolate reductase	-	Cryptosporidium parvum	TYPE 1	IC50	1.3 µM
O=C(O)c1ccc(N2C(=O)C(=Cc3ccccc3)SC2=S)cc1	NS5 polymerase	-	Bovine viral diarrhea virus	-	IC50	≤1 µM
c1ccc(Oc2ccc(-c3cncc(N4CCN(c5ccccn5)CC4)n3)cc2)cc1	UL97 kinase	10 µM	Cytomegalovirus	-	inhibition	>15%
O=C(Nc1nnc(NCc2ccco2)s1)c1ccc(I)cc1	Polymerase	-	Human cytomegalovirus	-	IC50	>25 µM
NC(=O)c1ccc(-c2cnc(N)c(N3CCN(c4ccncc4)CC3)n2)cc1	UL97 kinase	1 µM	Cytomegalovirus	-	inhibition	<50%
O=C(Nc1nnc(NCCc2c[nH]c3ccccc23)s1)c1ccc(Cl)c(Cl)c1	Polymerase	-	Human cytomegalovirus	-	IC50	>25 µM
CCCc1ccc(-c2ccc(C=C3SC(=S)N(c4ccc(C(=O)O)cc4)C3=O)o2)cc1	NS5 polymerase	-	Bovine viral diarrhea virus	-	IC50	≤1 µM
COc1cccc2nc(N)nc(N)c12	Dihydrofolate reductase	-	Cryptosporidium parvum	TYPE 1	IC50	0.56 µM
COc1ccccc1C(=O)Nc1nnc(NCc2cccc3ccccc23)s1	Polymerase	-	Human cytomegalovirus	-	IC50	>25 µM
COc1cc(CN2CCc3nc(N)nc(N)c3C2)c(Br)c(OC)c1OC	Dihydrofolate reductase	-	Cryptosporidium parvum	TYPE 1	IC50	2.1 µM
COc1ccc(N2CCN(c3cncc(-c4ccc(C(F)(F)F)cc4)n3)CC2)cc1OC	UL97 kinase	-	Cytomegalovirus	-	IC50	<10 µM
Nc1nc(N)c2nc(CN3c4ccccc4C=Cc4ccccc43)cnc2n1	Dihydrofolate reductase	-	Cryptosporidium parvum	TYPE 2	IC50	2.1 µM
Cc1cc(N2C(=O)C(=Cc3cc(C(F)(F)F)ccc3Cl)SC2=S)ccc1C(=O)O	NS5 polymerase	-	Bovine viral diarrhea virus	-	IC50	≤1 µM

A second listing of 2 rows from above:

SMILES | protein | tested at | agent | strain or isolate | measure | result
CCCC(C)NC(=O)c1ccc(N(C)Cc2ccc3nc(N)nc(N)c3n2)cc1 | Dihydrofolate reductase | - | Cryptosporidium parvum | TYPE 1 | IC50 | 1.3 µM
COc1cccc2nc(N)nc(N)c12 | Dihydrofolate reductase | - | Cryptosporidium parvum | TYPE 1 | IC50 | 0.56 µM